What was measured:
[1] = molecular target: recombinant mutant PTA (M365L) from OCT313-resistant BCG (Mycobacterium bovis, UniProt A0A679LAX5, M365L); conditions: for IC50: mutant type PTA
OCT313-resistant BCG = experiment: MIC by broth dilution method; assay type: cell-based, Mycobacterium bovis BCG; conditions: resistant vs parent BCG
M. bovis BCG = experiment: Frequency of spontaneously generated drug-resistant colonies; assay type: cell-based, Mycobacterium bovis BCG; conditions: parent BCG strain

Compound	IC50 [1]	IC50 against mutant versus wild-type PTA ([1]; mutant vs wild-type PTA)	MIC against OCT313-resistant bacteria versus parent strain (OCT313-resistant BCG)	Frequency of spontaneously generated drug-resistant colonies (M. bovis BCG)
CCN1C(=O)C=CC1=O [NEM, N-ethylmaleimide]	35.1 µM	–	–	–
CC(=O)N[C@@H]1[C@@H](O)[C@H](O)[C@@H](CO)O[C@H]1SC(=S)N(C)C [OCT313, 2-acetamido-2-deoxy-β-D-glucopyranosyl N,N-dimethyldithiocarbamate]	236 µM	84 fold	–	–
Dimethyldithiocarbamate	–	–	four times higher	2.3 × 10^−5

Source: publication PMC12724200 (mSphere, 2025)
